Measured values from several laboratories, pooled; numbers as filed in NIAID ChemDB.

All rows: cytotoxicity tests; cell line: MT-4; measure: CC50

CCn is the concentration with n% toxicity to the cells. Conditions beyond the fields shown may differ between rows.

{"structure": "CC(C)(C)OC(=O)N(CCC(=O)N(CC(=O)CN(Cc1ccccc1)C(=O)CCN(Cc1ccccc1)C(=O)OC(C)(C)C)Cc1ccccc1)Cc1ccccc1", "result": ">1 µM"}
{"structure": "N#Cc1cc2ccc(OC[C@@H]3CCCN3)cc2n(-c2ccc([N+](=O)[O-])cc2)c1=O", "result": ">32 µM"}
{"structure": "O=C1CSC(c2c(F)c(F)c(F)c(F)c2F)N1Cc1ccco1", "result": "82.6 µM"}
{"structure": "O=S(=O)(O)c1cc(Nc2ccnc3cc(Cl)ccc23)c2c(S(=O)(=O)O)cc(S(=O)(=O)O)cc2c1", "result": ">500 µg/mL"}
{"structure": "C=CCOCn1c(Cc2cccc(C(F)(F)F)c2)c(C(C)C)c(=O)[nH]c1=O", "result": "39 µM"}
{"structure": "O=C(Nc1ccc(-c2ccc(C(=O)Nc3ccc(S(=O)(=O)O)c4cc(S(=O)(=O)O)cc(S(=O)(=O)O)c34)cc2)cc1)Nc1ccc(-c2ccc(C(=O)Nc3ccc(S(=O)(=O)O)c4cc(S(=O)(=O)O)cc(S(=O)(=O)O)c34)cc2)cc1", "result": ">50 µg/mL"}
{"structure": "CC(C)CN(C[C@@H](O)[C@H](Cc1ccccc1)NC(=O)O[C@H]1CO[C@H]2OCC[C@H]21)S(=O)(=O)c1ccc2c(c1)/C(=C/c1ccc(N(C)C)cc1)C(=O)N2", "result": "100 µM"}
{"structure": "N#Cc1cc2c3c(ccc2n(-c2ccc([N+](=O)[O-])cc2)c1=O)OCO3", "result": ">100 µM"}
{"structure": "O=C(Nc1cccc(C(=O)Nc2ccc(S(=O)(=O)O)c3cc(S(=O)(=O)O)cc(S(=O)(=O)O)c23)c1)Nc1cccc(C(=O)Nc2ccc(S(=O)(=O)O)c3cc(S(=O)(=O)O)cc(S(=O)(=O)O)c23)c1", "result": ">50 µg/mL"}
{"structure": "O=C1CSC(c2c(Cl)cccc2Cl)N1Cc1ccco1", "result": "44.8 µM"}
{"structure": "N#Cc1cc2ccc(O[C@@H]3CCNC3)cc2n(-c2ccc([N+](=O)[O-])cc2)c1=O", "result": ">32 µM"}
{"structure": "Cc1ccc(C(=O)Nc2ccc(S(=O)(=O)O)c3cc(S(=O)(=O)O)cc(S(=O)(=O)O)c23)cc1NC(=O)Nc1cc(C(=O)Nc2ccc(S(=O)(=O)O)c3cc(S(=O)(=O)O)cc(S(=O)(=O)O)c23)ccc1C", "result": ">500 µg/mL"}
{"structure": "CC(C)(C)OC(=O)N(CCCCCC(=O)N(CC(=O)CN(Cc1ccccc1)C(=O)CCCCCN(Cc1ccccc1)C(=O)OC(C)(C)C)Cc1ccccc1)Cc1ccccc1", "result": ">50 µM"}
{"structure": "C#CCOCn1c(Cc2cccc(C(F)(F)F)c2)c(CC)c(=O)[nH]c1=O", "result": "68 µM"}
{"structure": "CC(C)(C)OC(=O)N(CCCCCCN(Cc1ccccc1)C(=O)OC(C)(C)C)CCCCCC(=O)N(Cc1ccccc1)CC(O)CN(Cc1ccccc1)C(=O)CCCCCN(CCCCCCN(Cc1ccccc1)C(=O)OC(C)(C)C)C(=O)OC(C)(C)C", "result": "10 µM"}
{"structure": "COc1ccccc1C1SCC(=O)N1Cc1ccco1", "result": "57.78 µM"}
{"structure": "Cc1ccc(C(=O)Nc2ccc(S(=O)(=O)O)c3cc(S(=O)(=O)O)cc(S(=O)(=O)O)c23)cc1NC(=O)c1cccc(NC(=O)c2ccc(C(=O)Nc3cccc(C(=O)Nc4cc(C(=O)Nc5ccc(S(=O)(=O)O)c6cc(S(=O)(=O)O)cc(S(=O)(=O)O)c56)ccc4C)c3)cc2)c1", "result": ">50 µg/mL"}
{"structure": "Cc1ccccc1C1SCC(=O)N1Cc1ccco1", "result": "160 µM"}
{"structure": "O=C(Nc1ccccc1-c1cccc(C(=O)Nc2ccc(S(=O)(=O)O)c3cc(S(=O)(=O)O)cc(S(=O)(=O)O)c23)c1)Nc1ccccc1-c1cccc(C(=O)Nc2ccc(S(=O)(=O)O)c3cc(S(=O)(=O)O)cc(S(=O)(=O)O)c23)c1", "result": ">500 µg/mL"}
{"structure": "CC(C)(C)OC(=O)N(CCC(=O)N(Cc1ccccc1)CC(O)CN(Cc1ccccc1)C(=O)CCN(Cc1ccccc1)C(=O)OC(C)(C)C)Cc1ccccc1", "result": "10 µM"}
{"structure": "N#Cc1cc2ccc(N[C@H]3CCNC3)cc2n(-c2ccc([N+](=O)[O-])cc2)c1=O", "result": ">32 µM"}
{"structure": "CC(C)(C)OC(=O)N(CCCCCC(=O)N(Cc1ccccc1)CC(O)CN(Cc1ccccc1)C(=O)CCCCCN(Cc1ccccc1)C(=O)OC(C)(C)C)Cc1ccccc1", "result": "50 µM"}
{"structure": "CCOCn1c(Cc2cccc(F)c2)c(CC)c(=O)[nH]c1=O", "result": ">100 µM"}
{"structure": "N#Cc1cc2ccc(OC[C@H]3CCCN3)cc2n(-c2ccc([N+](=O)[O-])cc2)c1=O", "result": ">32 µM"}
{"structure": "C#CCOCn1c(Cc2cccc(C(F)(F)F)c2)c(C(C)C)c(=O)[nH]c1=O", "result": "46 µM"}
{"structure": "CC(C)CN(C[C@@H](O)[C@H](Cc1ccccc1)NC(=O)O[C@H]1CO[C@H]2OCC[C@H]21)S(=O)(=O)c1ccc2c(c1)/C(=C/c1ccc(-c3ccccn3)cc1)C(=O)N2", "result": "63.1 µM"}
{"structure": "O=C(Nc1ccc(S(=O)(=O)O)c2cc(S(=O)(=O)O)cc(S(=O)(=O)O)c12)c1ccc([N+](=O)[O-])o1", "result": ">500 µg/mL"}
{"structure": "CC(=O)NCc1cccc(-c2ccc3c(N)c(C#N)c(=O)n(-c4ccc(C)c(C#N)c4)c3c2)c1", "result": "19.83 µM"}
{"structure": "Cc1ccc(C(=O)Nc2cc(C(=O)Nc3cc(C(=O)Nc4ccc(S(=O)(=O)O)c5cc(S(=O)(=O)O)cc(S(=O)(=O)O)c45)ccc3C)ccc2C)cc1NC(=O)Nc1cc(C(=O)Nc2cc(C(=O)Nc3cc(C(=O)Nc4ccc(S(=O)(=O)O)c5cc(S(=O)(=O)O)cc(S(=O)(=O)O)c45)ccc3C)ccc2C)ccc1C", "result": ">50 µg/mL"}
{"structure": "N#Cc1c(N)c2cc(Br)ccc2n(-c2ccc([N+](=O)[O-])cc2)c1=O", "result": ">100 µM"}
{"structure": "Cc1nc2ccccc2c(-c2ccc(Cl)cc2)c1[C@H](OC(C)(C)C)C(=O)O", "result": "48 µM"}

Repeating the final 4 entries:

structure,result
CC(=O)NCc1cccc(-c2ccc3c(N)c(C#N)c(=O)n(-c4ccc(C)c(C#N)c4)c3c2)c1,19.83 µM
Cc1ccc(C(=O)Nc2cc(C(=O)Nc3cc(C(=O)Nc4ccc(S(=O)(=O)O)c5cc(S(=O)(=O)O)cc(S(=O)(=O)O)c45)ccc3C)ccc2C)cc1NC(=O)Nc1cc(C(=O)Nc2cc(C(=O)Nc3cc(C(=O)Nc4ccc(S(=O)(=O)O)c5cc(S(=O)(=O)O)cc(S(=O)(=O)O)c45)ccc3C)ccc2C)ccc1C,>50 µg/mL
N#Cc1c(N)c2cc(Br)ccc2n(-c2ccc([N+](=O)[O-])cc2)c1=O,>100 µM
Cc1nc2ccccc2c(-c2ccc(Cl)cc2)c1[C@H](OC(C)(C)C)C(=O)O,48 µM